For one compound, IC50 results are on record in article PMC2217675, “Quantitative High-Throughput Screen Identifies Inhibitors of the Schistosoma mansoni Redox Cascade” (PLoS Neglected Tropical Diseases, 2008).

Amino acid sequences for entries named in this document (tags omitted). Residues count along the entry.
UniProt Q962Y6, 1-598: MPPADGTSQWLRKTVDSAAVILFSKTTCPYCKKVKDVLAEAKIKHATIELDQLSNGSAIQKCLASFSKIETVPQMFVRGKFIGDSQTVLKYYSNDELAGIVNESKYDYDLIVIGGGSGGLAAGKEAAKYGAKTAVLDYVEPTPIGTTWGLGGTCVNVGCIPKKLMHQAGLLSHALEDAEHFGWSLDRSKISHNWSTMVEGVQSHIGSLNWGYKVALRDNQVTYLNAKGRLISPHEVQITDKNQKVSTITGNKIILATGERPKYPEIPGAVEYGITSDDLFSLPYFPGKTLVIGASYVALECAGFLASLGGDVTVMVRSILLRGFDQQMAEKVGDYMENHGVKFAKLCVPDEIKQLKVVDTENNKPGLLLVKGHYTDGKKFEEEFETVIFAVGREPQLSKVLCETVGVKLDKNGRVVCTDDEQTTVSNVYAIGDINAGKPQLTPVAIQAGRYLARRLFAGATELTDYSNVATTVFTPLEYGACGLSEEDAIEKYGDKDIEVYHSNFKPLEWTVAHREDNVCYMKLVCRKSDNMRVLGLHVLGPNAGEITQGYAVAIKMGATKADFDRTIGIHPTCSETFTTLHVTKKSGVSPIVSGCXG

The target of this assay is S. mansoni TGR/Prx2 (Schistosoma mansoni, UniProt Q962Y6). The settings on record: read-out: qHTS IC50; initial high throughput screen of the collection; 25 nM TGR, 50 nM Prx2.

As to `CCN1C(=O)c2cccc3cccc1c23`, the IC50 – broadly, the concentration at which inhibition is half-maximal – is 3.9 µM.
